Molecular target: SARS-CoV-2 main protease with the A191T substitution (M^pro_(A191T)) (SARS-CoV-2)
Assay: native MS

Q: How did the stoichiometry N turn out when “SARS-CoV-2 main protease with the A191T substitution (M^pro_(A191T)) (enzyme)” was run?
A: 2

Reference: publication PMC11406233 (Proceedings of the National Academy of Sciences of the …, 2024)
